Anti-infective test results gathered from many reports (values: NIAID ChemDB through PubChem).

Shared fields: tests in culture; agent: HIV-1; endpoint: fold resistance

Lines come from different laboratories, so protocols vary.

structure | strain | mutations | read by | cells | result
CC(C)=CCOc1cc(NC(=S)c2ccoc2C)ccc1Cl | HEPT-resistant (RT P236L) | RT-P236L | cytopathic effect / XTT | CEM + CEM-SS | 2
Cc1cc(S(N)(=O)=O)ccc1NC(=O)COc1ccc(Cl)cc1C(=O)c1cc(F)cc(C#N)c1 | HXB2 | RT-P225H | β-galactosidase | HeLa + HELA CD4+ | ~1
CC(C)=CCOc1cc(NC(=S)c2ccsc2C)ccc1Cl | TIBO R82150-resistant (RT A98G V108I) | RT-A98G V108I | cytopathic effect / XTT | CEM + CEM-SS | 25
N#Cc1cc(Cl)cc(Oc2c(Br)ccc(CC(=O)Nc3ccc(S(N)(=O)=O)cc3Cl)c2F)c1 | - | Y181C | - | MT-4 | 1
Cc1cc(OCCCS(N)(=O)=O)ccc1NC(=O)COc1ccc(Cl)cc1C(=O)c1cc(F)cc(C(F)(F)F)c1 | HXB2 | RT-Y181C | β-galactosidase | HeLa + HELA CD4+ | ~1
Cc1ccc(C2CC2)c(-c2ccc3c(c2C)CCCO3)c1[C@H](OC(C)(C)C)C(=O)O | NL4-3 | PI-resistant ARP-11803 (L33F/E34T/K43T/G48V/I54S/L63P/A71V/V82A) | luminescence | MT-4 | 1
O=C1Nc2ccc(Cl)cc2[C@@](C#CC2CC2)(C(F)(F)F)N1 | - | RT-V106A | - | - | <6.32
Cc1ccc(C2CC2)c(-c2ccc3c(c2)CCCO3)c1[C@H](OC(C)(C)C)C(=O)O | NL4-3 | PI-resistant ARP-11807 (L33F/I47A/L63P/A71V/V82A) | luminescence | MT-4 | 1
CCC(=O)c1ccc(F)c([C@@H]2C[C@@H]2NC(=O)Nc2ccc(C#N)cn2)c1O | LAI | NNRTI-resistant (RT L100V) | β-galactosidase / luminescence | TZM-bl | 7.5
Cc1cc(S(N)(=O)=O)ccc1NC(=O)COc1ccc(Cl)cc1C(=O)c1cc(F)cc(C(F)(F)F)c1 | HXB2 (RT-K103N Y181C) Recombinant | RT-K103N Y181C | β-galactosidase | HeLa + HELA CD4+ | ~1
CC(C)=CCOc1cc(NC(=S)c2ccoc2C)ccc1Cl | 4XAZT+L100I (RT D67N K70R L100I T215Y K219Q) | RT-D67N K70R L100I T215Y K219Q | p24 | CEM + CEM-SS | 33
O=C1Nc2ccc(Cl)cc2[C@@](/C=C/C2CC2)(C(F)(F)F)N1 | - | RT-K103N V108I | - | - | 47.5
Cc1cc(C#N)cc(C(=O)c2cc(Cl)ccc2OCC(=O)Nc2ccc(S(N)(=O)=O)cc2C)c1 | HXB2 | RT-K103N | β-galactosidase | HeLa + HELA CD4+ | ~1
CC(C)=CCN1Cc2cccc3[nH]c(=O)n(c23)CC1C | UC040-R (RT-Y181C) | RT-Y181C | cytopathic effect / XTT | CEM + CEM-SS | 20

For reference, 2 entries again:

structure	strain	mutations	read by	cells	result
Cc1ccc(C2CC2)c(-c2ccc3c(c2)CCCO3)c1[C@H](OC(C)(C)C)C(=O)O	NL4-3	PI-resistant ARP-11807 (L33F/I47A/L63P/A71V/V82A)	luminescence	MT-4	1
CC(C)=CCOc1cc(NC(=S)c2ccoc2C)ccc1Cl	4XAZT+L100I (RT D67N K70R L100I T215Y K219Q)	RT-D67N K70R L100I T215Y K219Q	p24	CEM + CEM-SS	33

An empty or dashed field is not shown. Fold resistance has wild type as its base.